In patent US20210227843A1, “A TEMPERING COMPOSITION FOR TEMPERING GRAIN AND CONTROLLING PATHOGENS IN AND/OR ON SAID GRAIN, AN OXIDIZING COMPOSITION FOR PREPARING SAID TEMPERING COMPOSITION, A USE OF SAID TEMPERING COMPOSITION AND A METHOD OF USE OF SAID TEMPERING COMPOSITION” (AGRI-NEO INC., priority 2017, published 2021):

Experiment: Flour functionality, sensory and physical characteristics after tempering wheat in an organic flour mill (Example 1)
Settings: 2 L per ton of wheat (citric acid 2 Kg); 16 h hold

## O=C(O)CC(O)(CC(=O)O)C(=O)O [Citric acid]
  EXTENSO 1 3 h 30 after fermen. Extensibility: 193 mm
  EXTENSO 1 3 h 30 after fermen. Ratio: 1.1 EU/mm
  EXTENSO 1 Maximum: 705 mm
  EXTENSO 1 Ratio: 3.1 EU/mm
  EXTENSO 1 Ratio Max: 4.7 EU/mm
  FOSS % Ash: 0.48%
  FOSS % absorption: 59.82%
  GPT AM/BM: 46 s
  GPT BEM: 51 Brabender unit
  GPT PM/AM: 45 s
  MIXOLAB % H2O: 60.1%
  VMI Energy: 15.8 Watt per hour
  VMI Strength: 510 Watt per hour
  VMI Time: 54 s
  size poolish: 14.2 cm

## CC(O)C(=O)O (stereo not drawn) [Lactic acid]
  % Hydration: 59.5%
  Bread size-mold: 146 mm
  EXTENSO 1 3 h 30 after fermen. Energy: 64 cm-2
  EXTENSO 1 3 h 30 after fermen. Extensibility: 179 mm
  EXTENSO 1 3 h 30 after fermen. Maximum: 270 mm
  EXTENSO 1 3 h 30 after fermen. Ratio: 1.1 EU/mm
  EXTENSO 1 3 h 30 after fermen. Ratio Max: 1.5 EU/mm
  EXTENSO 1 3 h 30 after fermen. Resistance: 200 EU
  EXTENSO 1 Energy: 148 cm-2
  EXTENSO 1 Extensibility: 169 mm
  EXTENSO 1 Maximum: 712 mm
  EXTENSO 1 Ratio: 2.5 EU/mm
  EXTENSO 1 Ratio Max: 4.2 EU/mm
  EXTENSO 1 Resistance (EU = extensograph petrin outle tunit): 421 EU
  EXTENSO 2 Division after fermen Energy: 124 cm-2
  EXTENSO 2 Division after fermen Extensibility: 136 mm
  EXTENSO 2 Division after fermen Maximum: 734 mm
  EXTENSO 2 Division after fermen Ratio: 3.9 EU/mm
  EXTENSO 2 Division after fermen Ratio Max: 5.4 EU/mm
  EXTENSO 2 Division after fermen Resistance: 532 EU
  FOSS % Ash: 0.51%
  FOSS % Proteins: 11.54%
  FOSS % absorption: 60.85%
  FOSS % gluten: 31.83%
  FOSS % humidity: 12.8%
  GPT % Gluten—Wet: 34.6%
  GPT % Protein content: 11.2%
  GPT AM/BM: 45 s
  GPT BEM: 52 Brabender unit
  GPT PM/AM: 42 s
  IDC: 338 s
  MIXOLAB % H2O: 59.6%
  MIXOLAB Aff 12 min: 0.022 Nm
  PMT: 186 s
  VMI Energy: 14.9 Watt per hour
  VMI Strength: 509 Watt per hour
  VMI Temperature: 22.6 °C
  VMI Time: 43 s
  size poolish: 15.1 cm
